How the values were obtained:
Aspergillus parasiticus = conditions: versus untreated control; 0% = level of control, 100% = below limit of detection; registered application rate (fludioxonil 125 g a.i./ha); 6 days, 20° C.
Aspergillus flavus = conditions: versus untreated control; 0% = level of control, 100% = below limit of detection; registered dose rate (fludioxonil 125 g a.i./ha); 6 days, 28° C.

Compound	Reduction (%) of aflatoxin B1 production by Aspergillus parasiticus (Aspergillus parasiticus)	Reduction (%) of aflatoxin B1 production by Aspergillus flavus (Aspergillus flavus)
N#Cc1c[nH]cc1-c1cccc2c1OC(F)(F)O2 [Fludioxonil]	78%	77%
OC(Cc1ccccc1Cl)(Cn1nc[nH]c1=S)C1(Cl)CC1 (centres unmarked) [Prothioconazole]	52%	84%
CC(C)(C)C(O)(CCc1ccc(Cl)cc1)Cn1cncn1 (centres unmarked) [Tebuconazole]	94%	53%
CON=C(C(=O)OC)c1ccccc1CON=C(C)c1cccc(C(F)(F)F)c1 [Trifloxystrobin]	88%	93%

— patent US20110105577A1 (priority 2007, published 2011)
